Tested on: Nc1ncnc2c1ncn2[C@@H]1O[C@H](COP(=O)(O)OP(=O)(O)OP(=O)(O)O)[C@@H](O)[C@H]1O
Experiment: purified protein
Details: 100 mM HEPES pH 7, 10 mM Mg2+, 0 mM NaCl, 30 °C, cooperative

SaNsrF (SaNsrFWT) (Streptococcus agalactiae 2603V/R)
K0.5: 0.41 ± 0.05 mM
Vmax: 190.9 ± 10.0 nmol/min/mg
